A mixed list of measured activities; the numbers were collected in NIAID ChemDB.

All rows: tests in culture; organism: HIV-1; read-out: inhibition

Blank or dashed fields: not listed here. Conditions beyond the fields shown may differ between rows. Two numbers with a dash give a range or band. Percent inhibition refers to the dose given; in toxicity tests it is the harm to the cells.

smiles,setting,strain,cell line,dose,method,changes,value
CCCCCCCCCCCCCCCC(=O)N(CCCCCCCCCCC(=O)O)CC(O)C(O)C(O[C@@H]1O[C@H](CO)[C@H](O)[C@H](O)[C@H]1O)C(O)CO,-,-,PBMC,246 µM,XTT / p24,-,100%
O=C(O)CCCCCCCCCCCn1cnnn1,-,RF,CEM,10 µg/mL,cytopathic effect,-,65%
Cc1cc(=O)c2c(O)c3c(O)cc(O)c4c5c(O)cc(O)c6c(O)c7c(=O)cc(C)c8c1c2c(c34)c(c65)c78,7 d,-,CEM,0.25 µg/mL,ELISA,-,97%
COc1cc(-c2cc(-c3ccc4ccc5cccc6ccc3c4c56)c(C#N)c(=O)n2C2CC(OC(=O)c3ccc(C)cc3)C(COC(=O)c3ccc(C)cc3)O2)cc(OC)c1OC,-,IIIB,MT-4,100 µM,ELISA / antigen,-,<30%
[N-]=[N+]=NCCCCCCCCCCC(=O)O,-,-,CEM,10 µg/mL,cytopathic effect,-,35%
CCCCCCCCCCCCCCCCOP(=O)(OCCO[C@@H]1O[C@H](CO)[C@@H](O)[C@H](O)[C@@H]1O)OC[C@H]1O[C@@H](n2cc(C)c(=O)[nH]c2=O)C[C@@H]1N=[N+]=[N-],7 d,LAV-Bru,U-937,1 µM,RT activity,-,0%
O=Cc1ccc(F)c2c(C(=O)C(=O)N3CCN(C(=O)c4ccccc4)CC3)c[nH]c12,-,-,HeLa + HELA CD4+/CCR5,10 µM,luciferase,-,>98%
Nc1cc(S(=O)(=O)O)c2ccccc2c1N,-,-,MOLT-3,1 µg/mL,syncytia,-,30%
Nc1ccn([C@H]2CC[C@@H](CO)O2)c(=O)n1,-,NL4-3,CEM/1G5 T,1 µM,luciferase / cell fusion,-,69%
COc1cc(-c2cc(-c3ccc4ccc5cccc6ccc3c4c56)c(C#N)c(=O)[nH]2)cc(OC)c1OC,-,IIIB,MT-4,100 µM,ELISA / antigen,-,<30%
Nc1ccc(S(=O)(=O)O)c2cccc(O)c12,-,-,MOLT-3,10 µg/mL,syncytia,-,25%
OC[C@H]1O[C@@H](n2cnc3c(N4CC[C@@H](F)C4)ncnc32)C[C@H]1O,-,IIIB,CEM-SS,10 µM,XTT / cell fusion,-,0%
N#Cc1cc(Cl)cc(Oc2c(Cl)ccc3c2ncn3Cc2[nH]nc3ncccc23)c1,-,-,MT-4,0.32 µM,-,Y181C,>95%
Cc1ccc(C2CC2)c(-c2ccc3c(c2)CCCO3)c1[C@H](OC(C)(C)C)C(=O)O,-,NL4-3,MT-4,0.013 µM,luminescence,-,89%
O=S(=O)(O)c1ccc(-c2c3nc(c(-c4ccc(S(=O)(=O)O)cc4)c4ccc([nH]4)c(-c4ccc(S(=O)(=O)O)cc4)c4nc(c(-c5ccccc5)c5ccc2[nH]5)C=C4)C=C3)cc1,-,IIIB,MAGI,50 µg/mL,β-galactosidase,-,81%
Nc1cccc(C(=O)N2CCN(C(=O)C(=O)c3c[nH]c4cccc(Cl)c34)CC2)c1,-,-,HeLa + HELA CD4+/CCR5,10 µM,luciferase,-,>98%
N#Cc1cc(Cl)cc(Oc2c(Cl)ccc3c2cnn3Cc2[nH]nc3ncccc23)c1,-,-,MT-4,0.058 µM,-,Y181C,>95%
Cc1cn([C@H]2CC(O)[C@@H](COP(=O)(O)O)O2)c(=O)nc1N1CCCC1,-,IIIB,CEM-SS,10 µM,visual reading / cell fusion,-,44.1%
CC(S)C(=O)NCC(=O)O,-,-,H9,600 µg/mL,p24 / antigen,-,74%
CC(C)[C@H](NC(=O)[C@H](CO)NC(=O)[C@@H](N)CSSCC(=O)O)C(=O)N[C@H](C(=O)N[C@@H](CSSCC(=O)O)C(=O)NCC(=O)O)[C@@H](C)O,-,BaL,PBMC(PHA STIM.) + PBMC,0.66 µM,p24,-,35%
Cc1ccc(C(=O)OCC2OC(N3C(=O)NC(=O)/C3=C\c3ccc4ccc5cccc6ccc3c4c56)CC2OC(=O)c2ccc(C)cc2)cc1,-,IIIB,MT-4,100 µM,ELISA / antigen,-,<30%
O=C(O)CCCCCCCCCCCn1ccnn1,-,-,CEM,1 µg/mL,cytopathic effect,-,19%
O=S(=O)(O)c1ccc(-c2c3nc(c(-c4ccc(S(=O)(=O)O)cc4)c4ccc([n-]4)c(-c4ccc(S(=O)(=O)O)cc4)c4nc(c(-c5ccc(S(=O)(=O)O)cc5)c5ccc2[n-]5)C=C4)C=C3)cc1.[Gd+3],-,IIIB,MAGI,50 µg/mL,β-galactosidase,-,69%
CC1(C)[C@@H](O[C@H]2O[C@H](C(=O)O)[C@@H](O)[C@H](O)[C@H]2O[C@@H]2O[C@H](C(=O)O)[C@@H](O)[C@H](O)[C@H]2O)CC[C@]2(C)[C@H]3C(=O)C=C4[C@@H]5C[C@@](C)(C(=O)O)CC[C@]5(C)CC[C@@]4(C)[C@]3(C)CC[C@@H]12,-,IIIB,MT-4,300 µM,cytopathic effect,-,100%
F[C@@H]1CCN(c2ccnc(N3CC[C@@H](F)C3)n2)C1,-,IIIB,CEM-SS,10 µM,visual reading / cell fusion,-,0%
CC(=O)N1CCC(C(=O)N(CCCN2CCC(Cc3ccc(C(N)=O)cc3)CC2)c2ccc(C)c(Cl)c2)CC1,-,HNK Clinical isolates,PBMC,0.028 µM,p24,-,90%
Cc1ccc(-c2ccc3c(c2)C=C(C(=O)Nc2ccc(C[N+](C)(C)C4CCOCC4)cc2)CCC3)cc1,-,Du301 CLADE C,PBMC,1 µM,p24,-,100%
O=C(C(=O)N1CCN(C(=O)C2=Nc3ccccc3C2)CC1)c1c[nH]c2cccc(F)c12,-,-,HeLa + HELA CD4+/CCR5,10 µM,luciferase,-,70%
C=C(C)[C@@H]1CC[C@]2(C(=O)NCCCCCCCC(=O)N[C@@H](CC(C)C)[C@@H](O)CC(=O)O)CC[C@]3(C)[C@H](CC[C@@H]4[C@@]5(C)CC[C@H](O)C(C)(C)[C@@H]5CC[C@]43C)[C@@H]12,-,LAI,HeLa P4 + HeLa,10 µM,syncytia,GP41-L91H,28%
Cc1cn([C@H]2CC[C@@H](CO)O2)c(=O)nc1N1C[C@H](O)[C@@H](O)C1,-,IIIB,CEM-SS,10 µM,XTT / cell fusion,-,1.1%
CC[C@H](CO)Nc1nc(NCc2ccc(-c3ccccc3)cc2)n2ncc(C(C)C)c2n1,-,-,OM-10.1,0.05 µM,trypan blue,-,1–5%
O=C(C(=O)N1CCN(C(=O)c2ccccc2)CC1)c1c[nH]c2cccc(Br)c12,-,-,HeLa + HELA CD4+/CCR5,10 µM,luciferase,-,>98%
Nc1ccn([C@H]2CC[C@@H](CO)O2)c(=O)n1,-,IIIB,MT-4,0.5 µM,antigen,-,96%
CN(C)c1ccc(Nc2c3ccc(NC(=O)CCN4CCCC4)cc3nc3cc(NC(=O)CCN4CCCC4)ccc23)cc1,-,IIIB,MT-4,0.067 µM,p24 / ELISA / antigen,-,35%
N#Cc1cc(Cl)cc(Oc2c(Cl)ccc3c2cnn3Cc2[nH]nc3nc(N)ccc23)c1,-,-,MT-4,0.0097 µM,-,K103N,>95%
CC(C)[C@H](NC(=O)[C@H](CO)NC(=O)[C@@H](N)CS)C(=O)N[C@H](C(=O)N[C@@H](CS)C(=O)NCC(=O)O)[C@@H](C)O,-,IIIB,PBMC(PHA STIM.) + PBMC,1.32 µM,p24,-,74%
CCCCCCCCC(=O)NCCCC(=O)O,-,-,CEM,1 µg/mL,cytopathic effect,-,8%
Cc1cn([C@H]2C[C@H](N=[N+]=[N-])[C@@H](COP(=O)(O)OCCO[C@H]3O[C@H](CO)[C@@H](O)[C@H](O)[C@@H]3O)O2)c(=O)[nH]c1=O,7 d,LAV-Bru,U-937,1 µM,RT activity,-,0%
COc1ccc(Cl)c2[nH]cc(C(=O)C(=O)N3CCN(C(=O)c4cccc(N)c4)C[C@H]3C)c12,-,-,HeLa + HELA CD4+/CCR5,10 µM,luciferase,-,>98%
O=C(Cc1ccccc1)Nn1c(-c2ccccc2)nc2ccccc2c1=O,-,RF,CEM + CEM-SS,20 µM,cytopathic effect / XTT,-,18%
Cc1cc(=O)c2c(O)c3c(O)cc(O)c4c5c(O)cc(O)c6c(O)c7c(=O)cc(C)c8c1c2c(c34)c(c65)c78,-,LAV-1,CEM,1 µg/mL,cytopathic effect / p24 / ELISA,-,99%
COC(=O)c1cccc2c(C(=O)C(=O)N3CCN(C(=O)c4ccccc4)C[C@H]3C)c[nH]c12,-,-,HeLa + HELA CD4+/CCR5,10 µM,luciferase,-,>98%
Cn1ccnc1CCCCCCCCCCCC(=O)O,-,-,CEM,10 µg/mL,cytopathic effect,-,31%

3 of the rows above, restated:

{"smiles": "[N-]=[N+]=NCCCCCCCCCCC(=O)O", "cell line": "CEM", "dose": "10 µg/mL", "method": "cytopathic effect", "value": "35%"}
{"smiles": "COC(=O)c1cccc2c(C(=O)C(=O)N3CCN(C(=O)c4ccccc4)C[C@H]3C)c[nH]c12", "cell line": "HeLa + HELA CD4+/CCR5", "dose": "10 µM", "method": "luciferase", "value": ">98%"}
{"smiles": "C=C(C)[C@@H]1CC[C@]2(C(=O)NCCCCCCCC(=O)N[C@@H](CC(C)C)[C@@H](O)CC(=O)O)CC[C@]3(C)[C@H](CC[C@@H]4[C@@]5(C)CC[C@H](O)C(C)(C)[C@@H]5CC[C@]43C)[C@@H]12", "strain": "LAI", "cell line": "HeLa P4 + HeLa", "dose": "10 µM", "method": "syncytia", "changes": "GP41-L91H", "value": "28%"}